Compound potency records, mixed from different reports. Data source: NIAID ChemDB in PubChem.

All rows: whole-cell or culture tests; organism: Human cytomegalovirus; cell line: HFF; measure: EC50

ECn: concentration that inhibits the pathogen or its effect by n%.

SMILES | strain or isolate | method | value
Nc1nc(NC2CC2)c2ncn(C=C3CC3CO)c2n1 | Coffman | plaque count | 3.1 µM
CCCCCCCC/C=C\CCCCCCCOCCCOP(=O)(O)CO[C@H](CO)Cn1ccc(N)nc1=O | VR4955 (foscarnet-resistant) | plaque count | 0.002 µM
Cn1cc(C(=O)NCc2ccc(Cl)cc2)c(=O)c2cc(CN3CCOCC3)ccc21 | C8805/37-1-1 (ganciclovir-resistant) | plaque count | 3 µM
OC[C@@H]1O[C@@H](n2c(Cl)nc3cc(Cl)c(Cl)cc32)[C@H](O)[C@@H]1O | TOWNE | plaque count | 24 µM
O=C(NCc1ccc(Cl)cc1)c1cn2c3c(cc(CN4CCOCC4)cc3c1=O)OC(c1cccnc1)C2 | C8914-6 ganciclovir-resistant | plaque count | >8.7 µM
CCCCCCCCCCCCCCCCOP(=O)(O)CO[C@H](CO)Cn1ccc(N)nc1=O | Toledo | plaque count | 0.01 µM
Nc1nc2c(ncn2COC(CO)CO)c(=O)[nH]1 | TOWNE | virus yield | <4.4 µM
CC(C)Nc1nc2cc(Cl)c(Cl)cc2n1[C@H]1O[C@@H](CO)[C@H](O)[C@@H]1O | RCdelta97 | plaque count | >100 µM
Nc1ccn(C[C@@H](CO)OCP(=O)(O)O)c(=O)n1 | TOWNE | plaque count | 0.3 µM
CC(C)Nc1nc2cc(Cl)c(Cl)cc2n1[C@H]1O[C@@H](CO)[C@H](O)[C@@H]1O | AD169 | virus yield | <1.1 µM
OC[C@H]1O[C@@H](n2c(Br)nc3cc(Cl)c(Cl)cc32)[C@H](O)[C@@H]1O | R56 (BDCRB- maribavir-resistant) | plaque count | 8.8 µM
Nc1nc2c(ncn2/C=C2/CC2(CO)CO)c(=O)[nH]1 | GDGRK17 (ganciclovir- foscarnet-resistant) | plaque count | 2.4 µM
COC(=O)[C@H](C)NP(=O)(OC[C@H]1C/C1=C/n1cnc2c(OC)nc(N)nc21)Oc1ccccc1 | AD169 | cytopathic effect | 0.22 µM
Nc1nc2c(ncn2COC(CO)CO)c(=O)[nH]1 | Toledo | plaque count | 6.9 µM
CCCCCCCCCCCCOCCCOP(=O)(O)CO[C@H](CO)Cn1ccc(N)nc1=O | VR4760 (foscarnet-resistant) | plaque count | 0.02 µM
O[C@@H]1[C@H](O)CO[C@H]1n1c(Cl)nc2cc(Cl)c(Cl)cc21 | TOWNE | virus yield | <0.5 µM
Nc1nc2c(ncn2C=C2CC2CO)c(=O)[nH]1 | 759rD100 | plaque count | 23.2 µM
O[C@@H]1[C@H](O)[C@H](O)CO[C@H]1n1c(Br)nc2cc(Cl)c(Cl)cc21 | C9208/5-4-2 | plaque count | 2.3 µM
CCCCCCCCCCCCCCCCCCOC[C@H](COP(=O)(O)CO[C@H](CO)Cn1ccc(N)nc1=O)OCc1ccccc1 | Coffman | plaque count | 0.02 µM
OC[C@H]1O[C@@H](n2c(Br)nc3cc(Cl)c(Cl)cc32)[C@H](O)[C@@H]1O | C8914-6 drug-resistant | plaque count | 3.3 µM
CCCCCCCC/C=C\CCCCCCCCOCCOP(=O)(O)CO[C@H](CO)Cn1ccc(N)nc1=O | TOWNE | plaque count | 0.002 µM
Nc1nc2c(ncn2COC(CO)CO)c(=O)[nH]1 | R56 (BDCRB-resistant) | plaque count | 2.6 µM

Repeating the final 2 entries:

SMILES | strain or isolate | method | value
CCCCCCCC/C=C\CCCCCCCCOCCOP(=O)(O)CO[C@H](CO)Cn1ccc(N)nc1=O | TOWNE | plaque count | 0.002 µM
Nc1nc2c(ncn2COC(CO)CO)c(=O)[nH]1 | R56 (BDCRB-resistant) | plaque count | 2.6 µM

Lines come from different laboratories, so protocols vary.